The values that follow are results of earlier work, collected in article PMC5718886.

The data set deals with His37 (UniProt position 37, IIGILHLILWI). In words: NMR. The conditions noted are these: membrane-reconstituted M2TM tetramer, no drug mentioned.

Take “Matrix protein 2 (M2) proton channel, transmembrane segment (M2TM) (Influenza A virus)”: the pKa was 8.2±0.2.

Broadly, the pKa is the negative logarithm of the acid dissociation constant.
